Here are results for two molecules from PMC7540872, “A bacterial effector protein prevents MAPK-mediated phosphorylation of SGT1 to suppress plant immunity” (PLoS Pathogens, 2020).

The target in the test is His-SUMO-RipAC (Ralstonia solanacearum GMI1000, UniProt Q9RBS2 1-1024). Description: pull-down.

B1: GST-AtSGT1a (natural protein, Arabidopsis, UniProt Q9SUR9 1-350, looked up)
chain: MAKELADKAKEAFVDDDFDVAVDLYSKAIDLDPNCAEFFADRAQAYIKLESFTEAVADANKAIELDPSLTKAYLRKGTACMKLEEYRTAKTALEKGASITPSESKFKKLIDECNFLITEEEKDLVQPVPSTLPSSVTAPPVSELDVTPTAKYRHEYYQKPEEVVVTVFAKGIPKQNVNIDFGEQILSVVIEVPGEDAYYLQPRLFGKIIPDKCKYEVLSTKIEICLAKADIITWASLEHGKGPAVLPKPNVSSEVSQRPAYPSSKKVKDWDKLEAEVKKQEKDEKLEGDAALNKFFREIYQNADEDMRRAMSKSFVESNGTVLSTNWQEVGTKTIESTPPDGMELKKWEI
As to B1, the binding result is on record as “binds”.

B2: GST-AtSGT1b (natural protein, Arabidopsis, UniProt Q9SUT5 1-358, looked up)
chain: MAKELAEKAKEAFLDDDFDVAVDLYSKAIDLDPNCAAFFADRAQANIKIDNFTEAVVDANKAIELEPTLAKAYLRKGTACMKLEEYSTAKAALEKGASVAPNEPKFKKMIDECDLRIAEEEKDLVQPMPPSLPSSSTTPLATEADAPPVPIPAAPAKPMFRHEFYQKPEEAVVTIFAKKVPKENVTVEFGEQILSVVIDVAGEEAYHLQPRLFGKIIPEKCRFEVLSTKVEIRLAKAEIITWASLEYGKGQSVLPKPNVSSALSQRPVYPSSKPAKDWDKLEAEVKKQEKDEKLDGDAAMNKFFSDIYSSADEDMRRAMNKSFAESNGTVLSTNWKEVGTKKVESTPPDGMELKKWEY
For B2, the binding result is given as “binds”.
